## Deep mutational scan of the Zika virus protease

From the data files of Ni et al. 2025, doi:10.1038/s41467-025-63602-z.

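Libraries of single mutants were passaged as virus pools on Huh-7.5 cells. Deep sequencing gave the change in frequency of each mutant relative to wild type, averaged over three replicate libraries (two for positions 207-308). The aim was to find sites where inhibitor-binding pockets cannot change.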

The scanned region of Zika virus MR766 is shown below (positions 1-308): NS2B is 2-131, NS3 begins at position 132.
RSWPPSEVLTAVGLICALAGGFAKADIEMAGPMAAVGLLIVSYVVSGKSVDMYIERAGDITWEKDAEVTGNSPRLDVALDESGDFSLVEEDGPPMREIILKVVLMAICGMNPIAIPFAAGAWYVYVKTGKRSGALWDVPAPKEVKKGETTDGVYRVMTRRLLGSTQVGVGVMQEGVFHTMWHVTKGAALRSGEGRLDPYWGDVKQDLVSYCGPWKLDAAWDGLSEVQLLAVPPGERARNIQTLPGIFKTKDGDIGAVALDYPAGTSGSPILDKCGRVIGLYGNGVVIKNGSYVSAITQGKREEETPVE

The number is log2 of the effect relative to wild type; negative values mean reduced growth, higher values better tolerance. A change reads original residue, position, new residue. This list holds changes to tryptophan only. The region was split into three libraries (1-103, 104-206, 207-308). Position 1 still belongs to NS2A. In the paper, -1 or higher counts as tolerated. Values above 0 are not proof of better growth: six high scorers were tested one by one, five grew less well than wild type and one about as well.

- R1W -> -5.40
- S2W -> -7.40
- P4W -> -4.24
- P5W -> -6.09
- S6W -> -5.44
- E7W -> -5.65
- V8W -> -4.38
- L9W -> -3.49
- T10W -> -4.03
- A11W -> -4.91
- V12W -> -5.09
- G13W -> -5.33
- L14W -> -4.42
- I15W -> -4.95
- C16W -> -7.24
- A17W -> -5.73
- L18W -> -6.35
- A19W -> -6.26
- G20W -> -6.49
- G21W -> -4.66
- F22W -> -2.92
- A23W -> -5.87
- K24W -> -5.84
- A25W -> -1.94
- D26W -> -5.20
- I27W -> -5.87
- E28W -> -5.46
- M29W -> -1.86
- A30W -> -5.89
- G31W -> -6.34
- P32W -> -5.53
- M33W -> -0.20
- A34W -> -4.60
- A35W -> -5.47
- V36W -> -3.91
- G37W -> -2.30
- L38W -> -6.80
- L39W -> -4.99
- I40W -> -3.73
- V41W -> -5.36
- S42W -> -6.25
- Y43W -> -0.69
- V44W -> -5.95
- V45W -> -5.77
- S46W -> -6.14
- G47W -> -6.26
- K48W -> -6.18
- S49W -> -6.34
- V50W -> -6.46
- D51W -> -5.84
- M52W -> -3.30
- Y53W -> -3.30
- I54W -> -5.96
- E55W -> -6.23
- R56W -> -2.53
- A57W -> -5.08
- G58W -> -5.96